Assay results from ChEMBL document CHEMBL1131003, “Nonsymmetric P2/P2' cyclic urea HIV protease inhibitors. Structure-activity relationship, bioavailability, and resistance profile of monoindazole-substituted P2 analogues” (J Med Chem, 1998).

Key:
[1] = molecular target: Human immunodeficiency virus type 1 protease (Human immunodeficiency virus 1) (UniProt Q72874); test: Antiviral activity against mutant virus HIV-1 mutant (84V/82F) strain; assay type: functional
Summary of the method: (§1)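 I84V single and I84V/V82F double mutant HIV-1, both from in vitro selection under a cyclic urea inhibitor. IC90 measured by yield reduction assay.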

[2] = molecular target: Human immunodeficiency virus type 1 protease (Human immunodeficiency virus 1) (UniProt Q72874); test: Antiviral activity against mutant virus HIV-1 mutant (84V) strain; assay type: functional; summary of the method: as §1

## N=C(NO)c1cccc(CN2C(=O)N(Cc3cccc(/C(N)=N/O)c3)[C@H](CCc3ccccc3)[C@@H](O)[C@H]2Cc2ccccc2)c1
[1]
  IC90 mutant/IC90 WT: 0.4
[2]
  IC90 mutant/IC90 WT: 1
